The exact form of at least one protein or probe is not confirmed. Protein sequences can lack the tags named with them.
Assays:
[1] = molecular target: T1, PmrAF (BeF3- activated full-length PmrA) W181G,I220D (Klebsiella pneumoniae) (UniProt W9BNR5); assay: CD; details: 273 nm signal decreases from 25.6 to 22.6 mdeg, 20 mM sodium phosphate, 30 mM NaCl, pH 6.0, recombinant protein, residues 1-223, protein details: N-terminal extra Met, C-terminal LEHHHHHH, label: 5' 6-FAM (fluorescence polarization), none (NMR)
T1 sequence (looked up): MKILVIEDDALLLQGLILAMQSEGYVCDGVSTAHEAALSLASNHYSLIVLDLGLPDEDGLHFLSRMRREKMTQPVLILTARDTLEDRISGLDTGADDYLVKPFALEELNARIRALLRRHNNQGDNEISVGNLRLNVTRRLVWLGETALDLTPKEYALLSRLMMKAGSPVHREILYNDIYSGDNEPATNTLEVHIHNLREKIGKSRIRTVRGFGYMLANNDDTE

[2] = molecular target: T1, PmrAF (BeF3- activated full-length PmrA) W181G,I220D (Klebsiella pneumoniae); assay: NMR; details: both half-sites bound simultaneously, 20 mM sodium phosphate, 30 mM NaCl, pH 6.0, NMR at 298 K, recombinant protein, residues 1-223, protein details: N-terminal extra Met, C-terminal LEHHHHHH, label: 5' 6-FAM (fluorescence polarization), none (NMR)
[3] = molecular target: T1, PmrAF (BeF3- activated full-length PmrA) W181G,I220D (Klebsiella pneumoniae); assay: fluorescence polarization; details: one-site fit, 20 mM sodium phosphate, 30 mM NaCl, pH 6.0, FP with 12 nM 6-FAM DNA (temperature not stated), recombinant protein, residues …, protein details: N-terminal extra Met, C-terminal LEHHHHHH, label: 5' 6-FAM (fluorescence polarization), none (NMR)

## ATTTCTTAATATTATCCTAAGCAAG (double strand) [box1]
[1]
  binding result: binds
[2]
  binding result: binds
[3]
  Kd: 45 nM
